For this assay, the system named is GUMC-403. The assay can be described thus: viability at highest tested concentration (max response) relative to DMSO (% of DMSO control); higher = less cytotoxic. Conditions: library / dose series: MIPE library, 11-point 1:3 dilution; top concentration 46.1 µM; 48 h. In a few lines: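 This value is viability at the highest tested concentration relative to vehicle control. GUMC-403 papilloma cells from a patient, grown by conditional reprogramming, were plated at 700/well in 1536-well plates and given 23 nL of compound by pin tool for 48 h. CellTiter-Glo luminescence on a ViewLux was normalised with vehicle wells at 100% and empty wells at 0%.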

The source of these data is the supplement of paper PMC6723410.

As to `CCOC(=O)C(=O)CBr`, the viability is 114.
